Test results taken from patent US20250066365A1, “Ribonucleoside Analogues Against -Sars-Cov-2” (priority 2021, published 2025).
Like-named read-outs stand apart in the source and are kept apart here.

Legend:
[1] = tested on: SARS-CoV-2 USA_WA1/2020 strain; type: cell-based; conditions: Vero 76 cells
[2] = tested on: SARS-CoV-2 USA_WA1/2020 strain; experiment: Activity against SARS-CoV-2 in Vero E6 cells (cytopathic effect, visual and neutral red); type: cell-based
[3] = Neutral red (Cytopathic effect/Toxicity)
[4] = Visual (Cytopathic effect/Toxicity)

SMILES	SI50 [1, 3]	SI50 [1, 4]	SI50 [2, 3]	SI50 [2, 4]
C=Cc1cc([C@@H]2O[C@H](CO)[C@@H](O)[C@H]2O)n2ncnc(N)c12 [Compound 4.2a, 7-Vinyl-4-aza-7,9-dideazaadenosine]	29	>32		
Nc1ncnn2c([C@@H]3O[C@H](CO)[C@@H](O)[C@H]3O)cc(/C=C/c3ccccn3)c12 [Compound 4.2b, 7-((E)-2-(Pyridin-2-yl)vinyl)-4-aza-7,9-dideazaadenosine]	>3.2	0		
Cc1ccc(/C=C/c2cc([C@@H]3O[C@H](CO)[C@@H](O)[C@H]3O)n3ncnc(N)c23)cc1 [Compound 4.2c, 7-((E)-4-Methylstyryl)-4-aza-7,9-dideazaadnosine]	150	100		
Nc1ncnn2c([C@@H]3O[C@H](CO)[C@@H](O)[C@H]3O)cc(/C=C/c3ccc(F)cc3)c12 [Compound 4.2d, 7-((E)-4-Fluorostyryl)-4-aza-7,9-dideazaadenosine]	0	0		
Nc1ncnn2c([C@@H]3O[C@H](CO)[C@@H](O)[C@H]3O)cc(/C=C/c3ccc(C(F)(F)F)cc3)c12 [Compound 4.2e, 7-((E)-4-(Trifluoromethyl)styryl)-4-aza-7,9-dideazaadenosine]	0	0		
Nc1ncnn2c([C@@H]3O[C@H](CO)[C@@H](O)[C@H]3O)cc(/C=C/c3ccc(Cl)cc3)c12 [Compound 4.2f, 7-((E)-4-Chlorostyryl)-4-aza-7,9-dideazaadenosine]			0	0
Nc1ncnn2c([C@@H]3O[C@H](CO)[C@@H](O)[C@H]3O)cc(/C=C/c3cccc(F)c3)c12 [Compound 4.2g, 7-((E)-3-Fluorostyryl)-4-aza-7,9-dideazaadenosine]			0	0
Nc1ncnn2c([C@@H]3O[C@H](CO)[C@@H](O)[C@H]3O)cc(/C=C/C3CC3)c12 [Compound 4.2h, 7-((E)-2-Cyclopropylvinyl)-4-aza-7,9-dideazaadenosine]			0	0
Nc1ncnn2c([C@@H]3O[C@H](CO)[C@@H](O)[C@H]3O)cc(/C=C/C3CCCC3)c12 [Compound 4.2i, 7-((E)-2-Cyclopentylvinyl)-4-aza-7,9-dideazaadenosine]			0	0
Nc1ncnn2c([C@@H]3O[C@H](CO)[C@@H](O)[C@H]3O)cc(/C=C/c3cccs3)c12 [Compound 4.2j, 7-((E)-2-(Thiophen-2-yl)vinyl)-4-aza-7,9-dideazaadenosine]			0	0
Nc1ncnn2c([C@@H]3O[C@H](CO)[C@@H](O)[C@H]3O)cc(/C=C/c3ccsc3)c12 [Compound 4.2k, 7-((E)-2-(Thiophen-3-yl)vinyl)-4-aza-7,9-dideazaadenosine]			0	0
Nc1ncnn2c([C@@H]3O[C@H](CO)[C@@H](O)[C@H]3O)cc(/C=C/C3CCCCC3)c12 [Compound 4.2l, 7-((E)-2-Cyclohexylvinyl)-4-aza-7,9-dideazaadenosine]			0	0
CCC/C=C/c1cc([C@@H]2O[C@H](CO)[C@@H](O)[C@H]2O)n2ncnc(N)c12 [Compound 4.2m, 7-((E)-pent-1-en-1-yl)-4-aza-7,9-dideazaadenosine]			0	0
O=c1nc(NO)ccn1[C@@H]1O[C@H](CO)[C@@H](O)[C@H]1O [EIDD-1931, β-D-N^4-Hydroxycytidine, reference compound]			73	190
